Pooled drug test results. Numbers come from NIAID ChemDB, via PubChem.

Common to all: tests in culture; species: Mycobacterium avium complex

Rows are shuffled and stem from different studies.

SMILES	strain or isolate	endpoint	method	result
CCn1cc(C(=O)O)c(=O)c2cc(F)c(N3CCNCC3)cc21	CIPT 14031002	MIC	-	>40 µg/mL
CC1CCN(c2c(F)cc3c(=O)c(C(=O)O)cn(C4CC4)c3c2F)C1	1172733	MIC	-	2 µg/mL
CO[C@H]1/C=C/O[C@@]2(C)Oc3c(C)c(O)c4c(O)c(c(/C=N/N5CCN(C/C=C/c6ccccc6)CC5)c(O)c4c3C2=O)NC(=O)/C(C)=C\C=C\[C@H](C)[C@H](O)[C@@H](C)[C@@H](O)[C@@H](C)[C@H](OC(C)=O)[C@@H]1C	SK-32	MIC	-	0.06 µg/mL
NC1CCN(c2c(F)cc3c(=O)c(C(=O)O)cn(C4CC4)c3c2F)C1	1915112	MIC	-	16 µg/mL
CC(C)N=c1cc2n(-c3ccc(Cl)cc3)c3ccccc3nc-2cc1Nc1ccc(Cl)cc1	CH-4/HIV+	MIC	-	0.25 µg/mL
CN[C@@H]1[C@H](O[C@H]2[C@H](O[C@H]3[C@H](O)[C@@H](O)[C@H](N=C(N)N)[C@@H](O)[C@@H]3N=C(N)N)O[C@@H](C)[C@]2(O)C=O)O[C@@H](CO)[C@H](O)[C@H]1O	Isolate C-37	MIC	-	>400 µg/mL
CN(C)C1CCN(c2c(F)cc3c(=O)c(C(=O)O)cn(C4CC4)c3c2F)C1	14 strains	MIC50	-	0.5 µg/mL
CCn1cc(C(=O)O)c(=O)c2cc(F)c(N3CCNCC3)nc21	CIPT 140310034	MIC	-	10 µg/mL
CCN(CC)CC1CCN(c2c(F)cc3c(=O)c(C(=O)O)cn(C4CC4)c3c2F)C1	1915112	MIC	-	2 µg/mL
NCC[C@H](O)C(=O)N[C@@H]1C[C@H](N)[C@@H](O[C@H]2O[C@H](CN)[C@@H](O)[C@H](O)[C@H]2O)[C@H](O)[C@H]1O[C@H]1O[C@H](CO)[C@@H](O)[C@H](N)[C@H]1O	866	MIC	-	5 µg/mL
NCC[C@H](O)C(=O)N[C@@H]1C[C@H](N)[C@@H](O[C@H]2O[C@H](CN)[C@@H](O)[C@H](O)[C@H]2O)[C@H](O)[C@H]1O[C@H]1O[C@H](CO)[C@@H](O)[C@H](N)[C@H]1O	733/HIV+	MIC	-	4 µg/mL
NC[C@H]1O[C@H](O[C@H]2[C@H](O)[C@@H](O[C@H]3O[C@H](CO)[C@@H](O)[C@H](N)[C@H]3O)[C@H](N)C[C@@H]2N)[C@H](O)[C@@H](O)[C@@H]1O	N-966 (HIV+)	MIC	-	8 µg/mL
O=C(O)c1cn(C2CC2)c2c(F)c(N3CCC(N4CCCC4)C3)c(F)cc2c1=O	1172733	MIC	-	2 µg/mL
NC[C@@H]1O[C@H](O[C@H]2[C@@H](O)[C@H](O[C@@H]3[C@@H](O)[C@H](N)C[C@H](N)[C@H]3O[C@H]3O[C@H](CO)[C@@H](O)[C@H](O)[C@H]3N)O[C@@H]2CO)[C@H](N)[C@@H](O)[C@@H]1O	SK32/HIV+	MIC	-	6.25 µg/mL
NCC[C@H](O)C(=O)N[C@@H]1C[C@H](N)[C@@H](O[C@H]2O[C@H](CN)[C@@H](O)[C@H](O)[C@H]2O)[C@H](O)[C@H]1O[C@H]1O[C@H](CO)[C@@H](O)[C@H](N)[C@H]1O	3218	MIC	-	32 µg/mL
CO[C@H]1/C=C/O[C@@]2(C)Oc3c(C)c(O)c4c(O)c(c(/C=N/N5CCN(C)CC5)c(O)c4c3C2=O)NC(=O)/C(C)=C\C=C\[C@H](C)[C@H](O)[C@@H](C)[C@@H](O)[C@@H](C)[C@H](OC(C)=O)[C@@H]1C	827/HIV+	MIC	-	2 µg/mL
NNC(=O)c1ccncc1	1129	MIC	-	2 µg/mL
CN1CCN(c2cc3c(cc2F)c(=O)c(C(=O)O)cn3-c2ccc(F)cc2)CC1	3215	MIC	-	16 µg/mL
CC[C@@H](CO)NCCN[C@@H](CC)CO	908-5	MIC	-	1.9 µg/mL
O=C(O)c1cn(C2CC2)c2c(F)c(N3CCS(=O)CC3)c(F)cc2c1=O	PI12/39	MIC	-	4 µg/mL
CC[C@@H](CO)NCCN[C@@H](CC)CO	3215	MIC	-	16 µg/mL
CC1CN(c2c(F)cc3c(=O)c(C(=O)O)cn(C4CC4)c3c2F)CC(C)N1	1172733	MIC	-	1 µg/mL
CC[C@@H](CO)NCCN[C@@H](CC)CO	N-316 (HIV-)	MIC	-	1 µg/mL
C[C@@H]1CN(c2c(F)c(N)c3c(=O)c(C(=O)O)cn(C4CC4)c3c2F)C[C@H](C)N1	24	MIC	broth dilution	2 µg/mL
NCC1(O)CCN(c2c(F)cc3c(=O)c(C(=O)O)cn(N4CC4)c3c2F)C1	1760694	MIC	-	16 µg/mL

The last 2 rows once more:

SMILES | strain or isolate | endpoint | method | result
C[C@@H]1CN(c2c(F)c(N)c3c(=O)c(C(=O)O)cn(C4CC4)c3c2F)C[C@H](C)N1 | 24 | MIC | broth dilution | 2 µg/mL
NCC1(O)CCN(c2c(F)cc3c(=O)c(C(=O)O)cn(N4CC4)c3c2F)C1 | 1760694 | MIC | - | 16 µg/mL

A number after MIC or MFC names an inhibition level or a share of isolates. An empty or dashed field is not shown.